Measured values taken from patent US11254706B2 (Inno Bio-Drug Development Limited, priority 2015, dated 2022).
Ends that are not written are not given here.

Assay: general procedure: Fmoc solid-phase peptide synthesis; D or Q residue preloaded Wang resin (0.79 mmol/g load); PyBOP, 0.4 M N-methylmorpholine in DMF
Details: whole synthesis; for final HPLC purity: UV 220 nm

Row | Substance | isolated yield [%] | final HPLC purity [%]
1 | DEAQETAVSSHEQ-OH | 29 | >95
2 | DEAQETAVSSHEQD-OH | 28 | >95
